{"source": "paper PMC9951321", "about": "“Combating Escherichia coli O157:H7 with Functionalized Chickpea‐Derived Antimicrobial Peptides” (Advanced Science, 2022)", "key": {"[1]": {"tested_on": "E. coli O157:H7", "test": "Time-kill curves", "conditions": "4 × MIC, stationary phase culture, n = 3"}, "[2]": {"tested_on": "Escherichia coli O157:H7 ATCC 35150", "conditions": "for Control (MIC values determined in the absence of proteases): E. coli O157:H7, Table S2 control, no protease"}, "[3]": {"tested_on": "Escherichia coli O157:H7 ATCC 35150", "test": "MBC assay", "conditions": "no visible colony on PCA plate after 24 h at 37 °C, triplicate"}, "[4]": {"tested_on": "E. coli O157:H7", "test": "Gut colonized mouse model, histological evaluation of intestine", "type": "in vivo", "conditions": "ICR mice, H&E histology after 7 days; KTA 9.87, KTR 18.95, RI 38.31, RT 24.81, ciprofloxacin 30.18 µmol L^−1"}, "[5]": {"tested_on": "E. coli O157:H7", "test": "Membrane potential, Rhodamine 123 fluorescence", "conditions": "1 h treatment"}, "[6]": {"tested_on": "Escherichia coli O157:H7 ATCC 35150", "test": "microbe, parasite or virus in culture", "conditions": "ATCC35150, 24 h"}, "[7]": {"tested_on": "E. coli O157:H7", "test": "LPS binding assay (competitive inhibition of antibacterial activity)", "conditions": "purified LPS of E. coli origin, 0.5–1000 µg mL^−1, chequerboard broth microdilution"}, "[8]": {"tested_on": "E. coli O157:H7", "test": "Outer membrane permeability, NPN uptake"}, "[9]": {"tested_on": "E. coli O157:H7", "test": "Food surface decontamination model (cherry tomatoes)", "conditions": "50 µg mL^−1, 2 mL, 10 min; inoculum around 6.20 log CFU g^−1; limit of detection 1.0 log CFU g^−1; n = 3"}}, "note": "Like-named read-outs stand apart in the source and are kept apart here. Where a SMILES comes first, the peptide text is derived from it."}
{"compound": "CC[C@H](C)[C@H](NC(=O)[C@@H](N)CCCNC(=N)N)C(=O)N[C@@H](CCCCN)C(=O)N[C@H](C(=O)N[C@@H](CCCNC(=N)N)C(=O)N[C@H](C(=O)N[C@@H](Cc1c[nH]c2ccccc12)C(=O)N[C@@H](CCCNC(=N)N)C(=O)N[C@@H](CC(C)C)C(=O)N[C@@H](C)C(=O)N[C@@H](CC(C)C)C(=O)N[C@@H](CCCNC(=N)N)C(=O)N[C@@H](Cc1c[nH]c2ccccc12)C(=O)N[C@@H](CC(C)C)C(=O)N[C@@H](CCCCN)C(=O)N[C@@H](CC(C)C)C(=O)O)[C@@H](C)O)[C@@H](C)O", "note": "[KTR] (H-RIKTRTWRLALRWLKL-OH)", "values": [{"measurement": "Time to kill almost all E. coli O157:H7 cells", "setting": "[1]", "value": "≤ 4", "unit": "h"}, {"measurement": "Control (MIC values determined in the absence of proteases)", "setting": "[2]", "value": 4.7, "unit": "µM"}, {"measurement": "MBC", "setting": "[3]", "value": 7.1, "unit": "µM"}, {"measurement": "Attenuation of colitis caused by E. coli infection (in words)", "setting": "[4]", "value": "essentially equipotent"}, {"measurement": "Effect on membrane potential (in words)", "setting": "[5]", "value": "depolarized"}]}
{"compound": "colistin", "values": [{"measurement": "MIC", "setting": "[2]; Escherichia coli O157:H7 ATCC 35150, broth micro-dilution in MHB, 37 °C, 24 h, read by eye, triplicate", "value": 3.2, "unit": "µM"}]}
{"compound": "CC[C@H](C)[C@H](NC(=O)[C@@H](N)CCCNC(=N)N)C(=O)N[C@@H](CCCCN)C(=O)N[C@@H](CCCNC(=N)N)C(=O)N[C@@H](CC(C)C)C(=O)N[C@@H](C)C(=O)N[C@@H](CC(C)C)C(=O)N[C@@H](CCCNC(=N)N)C(=O)N[C@@H](Cc1c[nH]c2ccccc12)C(=O)N[C@@H](CC(C)C)C(=O)N[C@@H](CCCCN)C(=O)N[C@@H](CC(C)C)C(=O)O", "note": "[RI] (H-RIKRLALRWLKL-OH)", "values": [{"measurement": "Control (MIC values determined in the absence of proteases)", "setting": "[2]", "value": 9.6, "unit": "µM"}, {"measurement": "Attenuation of colitis caused by E. coli infection (in words)", "setting": "[4]", "value": "essentially equipotent"}]}
{"compound": "CC(C)C[C@H](NC(=O)[C@H](CCCCN)NC(=O)[C@H](CC(C)C)NC(=O)[C@H](Cc1c[nH]c2ccccc12)NC(=O)[C@H](CCCNC(=N)N)NC(=O)[C@H](CC(C)C)NC(=O)[C@H](C)NC(=O)[C@H](CC(C)C)NC(=O)[C@H](CCCNC(=N)N)NC(=O)[C@H](Cc1c[nH]c2ccccc12)NC(=O)[C@@H](NC(=O)[C@@H](N)CCCNC(=N)N)[C@@H](C)O)C(=O)O", "note": "[RT] (H-RTWRLALRWLKL-OH)", "values": [{"measurement": "Control (MIC values determined in the absence of proteases)", "setting": "[2]", "value": 6.2, "unit": "µM"}, {"measurement": "Attenuation of colitis caused by E. coli infection (in words)", "setting": "[4]", "value": "slightly less active"}]}
{"compound": "NC[C@H]1O[C@H](O[C@H]2[C@H](O)[C@@H](O[C@H]3O[C@H](CO)[C@@H](O)[C@H](N)[C@H]3O)[C@H](N)C[C@@H]2N)[C@H](N)C[C@@H]1O", "note": "[Tob, tobramycin]", "values": [{"measurement": "MIC", "setting": "[6]", "value": 8.6, "unit": "µM"}]}
{"compound": "CC[C@H](C)[C@H](NC(=O)[C@@H](N)CCCNC(=N)N)C(=O)N[C@@H](CCCCN)C(=O)N[C@H](C(=O)N[C@@H](C)C(=O)N[C@H](C(=O)N[C@@H](Cc1c[nH]c2ccccc12)C(=O)N[C@@H](CCCNC(=N)N)C(=O)N[C@@H](CC(C)C)C(=O)N[C@@H](C)C(=O)N[C@@H](CC(C)C)C(=O)N[C@@H](CCCNC(=N)N)C(=O)N[C@@H](Cc1c[nH]c2ccccc12)C(=O)N[C@@H](CC(C)C)C(=O)N[C@@H](CCCCN)C(=O)N[C@@H](CC(C)C)C(=O)O)[C@@H](C)O)[C@@H](C)O", "note": "[KTA] (H-RIKTATWRLALRWLKL-OH)", "values": [{"measurement": "Antibacterial activity on addition of exogenous LPS (in words)", "setting": "[7]", "value": "largely abolished"}, {"measurement": "Time to kill almost all E. coli O157:H7 cells", "setting": "[1]", "value": "≤ 6", "unit": "h"}, {"measurement": "Time to saturation of maximum NPN uptake", "setting": "[8]; 4 × MIC", "value": "around 6 h"}, {"measurement": "Time to saturation of maximum NPN uptake", "setting": "[8]; 16 × MIC", "value": 4, "unit": "h"}, {"measurement": "Control (MIC values determined in the absence of proteases)", "setting": "[2]", "value": 2.5, "unit": "µM"}, {"measurement": "E. coli O157:H7 counts on contaminated cherry tomato surface", "setting": "[9]", "value": "no detectable bacteria"}, {"measurement": "MBC", "setting": "[3]", "value": 9.9, "unit": "µM"}, {"measurement": "Attenuation of colitis caused by E. coli infection (in words)", "setting": "[4]", "value": "essentially equipotent"}, {"measurement": "Effect on membrane potential (in words)", "setting": "[5]", "value": "hyper‐polarization"}]}
{"compound": "O=C(O)c1cn(C2CC2)c2cc(N3CCNCC3)c(F)cc2c1=O", "note": "[ciprofloxacin, reference compound]", "values": [{"measurement": "Attenuation of colitis caused by E. coli infection (in words)", "setting": "[4]", "value": "essentially equipotent"}]}
{"compound": "CC[C@H](C)[C@H](NC(=O)CN)C(=O)NCC(=O)N[C@@H](C)C(=O)N[C@H](C(=O)N[C@@H](CC(C)C)C(=O)N[C@@H](CCCCN)C(=O)N[C@H](C(=O)N[C@@H](CC(C)C)C(=O)N[C@H](C(=O)N[C@H](C(=O)NCC(=O)N[C@@H](CC(C)C)C(=O)N1CCC[C@H]1C(=O)N[C@@H](C)C(=O)N[C@@H](CC(C)C)C(=O)N[C@H](C(=O)N[C@@H](CO)C(=O)N[C@@H](Cc1c[nH]c2ccccc12)C(=O)N[C@H](C(=O)N[C@@H](CCCCN)C(=O)N[C@@H](CCCNC(=N)N)C(=O)N[C@@H](CCCCN)C(=O)N[C@@H](CCCNC(=N)N)C(=O)N[C@@H](CCC(N)=O)C(=O)N[C@@H](CCC(N)=O)C(N)=O)[C@@H](C)CC)[C@@H](C)CC)[C@@H](C)O)[C@@H](C)O)C(C)C)C(C)C", "note": "[Melittin, reference compound]", "values": [{"measurement": "Control (MIC values determined in the absence of proteases)", "setting": "[2]", "value": 12.5, "unit": "µM"}]}
